The assay addresses T1, GST-P58^IPK fusion protein (human (cDNA from HUVEC), UniProt Q13217 32-504).
T1 chain: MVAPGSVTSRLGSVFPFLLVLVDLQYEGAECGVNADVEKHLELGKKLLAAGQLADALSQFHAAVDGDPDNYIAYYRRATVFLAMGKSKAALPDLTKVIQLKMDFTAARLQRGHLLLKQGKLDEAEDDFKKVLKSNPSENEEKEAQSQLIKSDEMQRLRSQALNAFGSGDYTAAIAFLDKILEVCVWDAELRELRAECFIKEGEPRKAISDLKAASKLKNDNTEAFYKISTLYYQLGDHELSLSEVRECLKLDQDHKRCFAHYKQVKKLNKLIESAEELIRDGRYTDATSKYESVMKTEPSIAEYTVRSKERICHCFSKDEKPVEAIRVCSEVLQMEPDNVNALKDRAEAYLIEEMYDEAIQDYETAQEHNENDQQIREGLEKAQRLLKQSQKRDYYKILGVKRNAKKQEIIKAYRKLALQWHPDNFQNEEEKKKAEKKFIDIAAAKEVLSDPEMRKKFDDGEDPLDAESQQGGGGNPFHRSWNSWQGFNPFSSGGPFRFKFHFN
As to the kind of experiment: BLI.

B1: C-terminally His tagged NP (natural protein)
chain: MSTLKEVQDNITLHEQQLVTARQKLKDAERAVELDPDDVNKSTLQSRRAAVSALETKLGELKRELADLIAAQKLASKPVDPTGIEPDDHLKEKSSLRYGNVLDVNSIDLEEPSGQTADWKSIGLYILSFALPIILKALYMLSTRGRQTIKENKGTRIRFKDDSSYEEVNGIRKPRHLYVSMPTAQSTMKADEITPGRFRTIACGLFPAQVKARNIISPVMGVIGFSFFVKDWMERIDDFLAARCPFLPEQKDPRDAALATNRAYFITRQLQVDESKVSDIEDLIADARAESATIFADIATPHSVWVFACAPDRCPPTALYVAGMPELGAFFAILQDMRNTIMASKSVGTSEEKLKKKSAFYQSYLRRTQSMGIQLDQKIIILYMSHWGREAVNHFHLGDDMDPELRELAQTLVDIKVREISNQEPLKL
Molecule B1 showed a koff of 0.0119 s⁻¹.
